Measurements: patent EP2181998B1, “New benzothiazinone derivative and its use as antibacterial agent” (priority 2006, dated 2007)

System: M. fortuitum B
Assay: MIC by micro broth dilution method in Mueller-Hinton broth (NCCLS)

CCOC1(OCC)CCN(c2nc(=O)c3cc([N+](=O)[O-])cc([N+](=O)[O-])c3s2)CC1
MIC M.fortuitum: 0,08 µg/ml
